Compound potency records, mixed from different reports. Data source: NIAID ChemDB in PubChem.

Shared fields: whole-cell or culture tests; organism: HIV-1

An empty or dashed field is not shown.

SMILES,setting,measure,strain or isolate,cell line,changes,read by,result
Cc1cc(=O)c2ccc(N=C=S)cc2o1,-,EC50,ADA,CEM-GFP,-,p24 / ELISA,0.186 µM
O=C(CC1(O)C(=O)Nc2ccccc21)c1ccccc1Cl,-,EC50,IIIB,C8166,-,cytopathic effect / syncytia,164 µM
Cc1cn([C@H]2C[C@H](N=[N+]=[N-])[C@@H](CO)O2)c(=O)[nH]c1=O,-,EC50,HXB2,CBMC,-,-,0.004 µM
CC(=O)Oc1ccc2cc(Br)ccc2c1Cc1c(-c2ccccc2)[nH]c2ccccc12,-,EC50,-,MT-4,-,MTT,>8 µM
Nc1nc(=O)n([C@@H]2CS[C@H](CO)O2)cc1F,14 d,EC50,LAV-1,CEM(TK-) + CEM TK-,-,cytopathic effect,0.49 µM
Cc1cn([C@H]2C[C@H](N=[N+]=[N-])[C@@H](CO)O2)c(=O)[nH]c1=O,-,EC50,-,MT-4,Indinavir- ritonavir-resistant PR V82F/I84V,-,0.002 µM
CN(C)C(=O)c1cnnn1[C@@H]1O[C@H](CO[Si](C)(C)C(C)(C)C)C2(OS(=O)(=O)C=C2N)[C@H]1O[Si](C)(C)C(C)(C)C,-,EC50,IIIB,MT-4,-,cytopathic effect / MTT,0.056 µM
CC(C)(C)NC(=O)c1ccccc1C[C@@H](O)[C@H](CSc1ccc2ccccc2c1)NC(=O)c1cccc(N)c1Br,-,EC50,-,CEM,-,cytopathic effect,1.6 µg/mL
O=c1[nH]cnc2c1ncn2[C@H]1CC[C@@H](CO)O1,-,EC90,Subtype B isolate,PBMC,-,p24,1.2 µM
CCOP(=O)(N[C@@H](C)C(=O)OC)OC[C@H]1O[C@@H](n2cc(C)c(=O)[nH]c2=O)C[C@@H]1N=[N+]=[N-],-,EC50,IIIB,C8166,-,MTT / p24,4 µM
Cc1cc(C)cc(S(=O)(=O)c2c(C(=O)NC(C)C(N)=O)[nH]c3ccc(Cl)cc23)c1,-,EC50,-,MT-4,L100I,MTT,0.009 µM
O=C1Nc2c(C(F)(F)F)ccnc2N(C2CC2)c2ncccc21,-,EC50,IIIB,MT-4,-,cytopathic effect / MTT,>200 µM
Cc1cccc(C(=O)CC2(O)C(=O)Nc3ccc(Br)cc32)c1,-,EC50,IIIB,C8166,-,cytopathic effect / syncytia,5.71 µM
CCC(=O)Oc1ccc2c(C)cc(=O)oc2c1Cc1c(-c2ccccc2)[nH]c2ccccc12,-,EC50,-,MT-4,-,MTT,>38 µM
Cc1cn([C@H]2C[C@H](N=[N+]=[N-])[C@@H](COP(=O)(O)OP(=O)(O)OP(=O)(O)O)O2)c(=O)[nH]c1=O,-,EC50,MDR769 Multidrug-resistant isolate,PBMC,-,p24,0.59 µM
CC(c1cc(=O)[nH]c(SC2CCCC2)n1)c1c(F)cccc1F,-,EC50,-,MT-4,RT-Y181C,cytopathic effect / MTT,2.5 µM
Cc1ccnc2c1NC(=O)c1cccnc1N2C1CC1,-,EC50,IIIB,MT-4,-,cytopathic effect,0.048 µM
O=C(CC1(O)C(=O)Nc2ccc(Cl)cc21)c1cccc(Cl)c1,-,EC50,IIIB,C8166,-,cytopathic effect / syncytia,43.31 µM
Cc1cn([C@H]2C=C[C@@H](COC(=O)NCCSC(=O)OC[C@@H]3CC[C@H](n4cnc5c(=O)[nH]cnc54)O3)O2)c(=O)[nH]c1=O,-,EC50,WT,MT-4,-,cytopathic effect / MTT,43 µM
O=C(CC1(O)C(=O)Nc2ccc(Cl)cc21)c1ccc(Cl)c(Cl)c1,-,EC50,IIIB,C8166,-,cytopathic effect / syncytia,28.47 µM
NNC(=O)c1cc(Cl)ccc1NC(=O)C12CC3CC(CC(C3)C1)C2,-,EC50,-,CEM,-,cytopathic effect / XTT,>15.1 µM
Cc1cn([C@H]2C[C@H](N=[N+]=[N-])[C@@H](CO)O2)c(=O)[nH]c1=O,-,EC50,IIIB,PBMC,-,RT activity,<0.01 µM
CNC(=O)[C@@H](NC(=O)[C@H](OCc1ccccc1)[C@@H](O)[C@H](O)[C@@H](OCc1ccccc1)C(=O)N[C@H](C(=O)NC)C(C)C)C(C)C,-,EC50,-,MT-4,-,cytopathic effect / XTT,24 µM
CSCSc1cc(Cc2cc(C)cc(C)c2)c(C(C)C)c(=O)[nH]1,-,EC50,IIIB,PBMC,-,p24,0.02 µM
CC(C)OC(=O)[C@H](C)N[P@@](=O)(CO[C@H](C)Cn1cnc2c(N)ncnc21)Oc1ccccc1,-,EC50,-,-,-,-,0.06 µM
Cc1cn([C@H]2C[C@H](N=[N+]=[N-])[C@@H](CO)O2)c(=O)[nH]c1=O,-,EC50,IIIB,H9,-,p24,0.036 µM
Cc1ccc(S(=O)(=O)OC[C@H]2O[C@@H](n3cc(C)c(=O)n(C)c3=O)[C@H](O[Si](C)(C)C(C)(C)C)C23OS(=O)(=O)C=C3N)cc1,-,EC50,IIIB,MT-4,-,syncytia,24 µM
CCC(C)Nc1nc(C(C)c2c(F)cccc2F)cc(=O)[nH]1,-,EC50,-,MT-4,RT-Y181C,cytopathic effect / MTT,1.4 µM
Cc1ccnc2c1NC(=O)c1cccnc1N2C1CC1,-,EC95,-,MT-4,RT-K70R Y181C,-,3 µM
COc1ccc2ccc(OC(C)=O)c(Cc3c(C)[nH]c4ccccc34)c2c1,-,EC50,-,MT-4,-,MTT,15 µM
CC(C)(C)NC(=O)c1ccccc1C[C@@H](O)[C@H](CSc1ccc2ccccc2c1)NC(=O)c1cccc2[nH]ccc12,-,EC50,-,CEM,-,cytopathic effect,6.6 µg/mL
Cc1cn([C@@H]2O[C@H](CO[Si](C)(C)C(C)(C)C)[C@]3(C=CS(=O)(=O)O3)[C@H]2O[Si](C)(C)C(C)(C)C)c(=O)n(C)c1=O,-,EC50,-,MT-4,-,-,0.53 µM
CSC[C@H](NC(=O)COc1cccc2cnccc12)C(=O)N[C@@H](Cc1ccccc1)[C@H](O)C(=O)N1CSC(C)(C)[C@H]1C(=O)NC(C)(C)C,-,EC50,LAI,ATH8,-,cytopathic effect,0.1 µM
Cc1cn([C@H]2C[C@H](N=[N+]=[N-])[C@@H](CO)O2)c(=O)[nH]c1=O,-,EC50,IIIB,PBMC,-,RT activity,0.04 µM
CC(=O)Oc1ccc2ccccc2c1Cc1c[nH]c2ccc(Br)cc12,-,EC50,-,MT-4,-,MTT,11 µM
Cc1cnc(Nc2ccc(C#N)cc2)nc1C(O)c1ccc2ccccc2c1,-,EC50,IIIB,MT-4,-,MTT,0.6 µM
CSC[C@H](NC(=O)COc1cccc2ccccc12)C(=O)N[C@@H](Cc1ccccc1)[C@H](O)C(=O)N1CSC(C)(C)[C@H]1C(=O)NC(C)(C)C,-,EC90,Clinical isolates,PBMC,-,p24,0.06 µM
O=C(CC1(O)C(=O)Nc2ccc(Cl)cc21)c1ccccc1,-,EC50,-,C8166,K103N,p24 / ELISA,177 µM
COc1cc(NC(=O)C23CC4CC(CC(C4)C2)C3)c(C(=O)NN)cc1OC,-,EC50,-,CEM,-,cytopathic effect / XTT,>40.5 µM
CCCNc1nc(C(C)c2c(F)cccc2F)c(C)c(=O)[nH]1,-,EC50,IIIB,MT-4,-,cytopathic effect / MTT,0.01 µM
Cc1cn([C@H]2C[C@H](N=[N+]=[N-])[C@@H](COP(=O)(Oc3ccc([N+](=O)[O-])cc3)Oc3ccc([N+](=O)[O-])cc3)O2)c(=O)[nH]c1=O,-,EC50,IIIB,C8166,-,MTT / p24,0.0032 µM
Cc1cn([C@H]2C[C@H](N=[N+]=[N-])[C@@H](COC(=O)CN3CCN(c4ccccc4)CC3)O2)c(=O)[nH]c1=O,-,EC50,CD 451,PBL,-,p24,0.18 µM
Cc1c(C(C)c2c(F)cccc2F)nc(NC(C)C)[nH]c1=O,-,EC50,-,MT-4,RT-Y181C,cytopathic effect / MTT,0.5 µM
CNC(=O)[C@@H](NC(=O)[C@H](OCc1ccccc1)[C@H](O)[C@@H](O)[C@@H](OCc1ccccc1)C(=O)N[C@H](C(=O)NC)C(C)C)C(C)C,-,EC50,-,MT-4,-,cytopathic effect / XTT,1.1 µM
Cc1cn([C@@H]2O[C@H](COC(=O)C(C)(C)C)C3(OS(=O)(=O)C=C3N)[C@H]2O[Si](C)(C)C(C)(C)C)c(=O)[nH]c1=O,-,EC50,IIIB,MT-4,-,syncytia,13 µM
[B-][P@](=O)(OC[C@H]1O[C@@H](n2cc(C)c(=O)[nH]c2=O)C[C@@H]1N=[N+]=[N-])OP(=O)(O)C(F)(F)P(=O)(O)O,-,EC50,MDR769 Multidrug-resistant isolate,PBMC,-,p24,<0.005 µM
CC(C)(C)NC(=O)c1ccccc1C[C@@H](O)[C@H](CSc1ccc2ccccc2c1)NC(=O)c1ccnc2ccccc12,-,EC50,-,CEM,-,cytopathic effect,5.6 µg/mL
Cc1cn([C@@H]2O[C@H](COCc3ccccc3)C3(OS(=O)(=O)C=C3NC(=O)c3ccccc3)[C@H]2OC(=O)c2ccccc2)c(=O)[nH]c1=O,-,EC50,IIIB,MT-4,-,syncytia,>40 µM
COc1ccc2ccc(OC(C)=O)c(Cc3c[nH]c4ccccc34)c2c1,-,EC50,-,MT-4,-,MTT,27 µM
Cc1cn([C@@H]2O[C@H](CO[Si](C)(C)C(C)(C)C(C)C)C3(OS(=O)(=O)C=C3N)[C@H]2O[Si](C)(C)C(C)(C)C)c(=O)n(C)c1=O,-,EC50,IIIB,CEM,-,syncytia,0.8 µM
CCC(C)Nc1nc(Cc2c(F)cccc2F)c(C)c(=O)[nH]1,-,EC50,IIIB,MT-4,-,cytopathic effect / MTT,0.06 µM
Nc1nccn(Cc2cc3c(cc2Cl)C(C#CC2CC2)(C(F)(F)F)NC(=O)N3)c1=O,pseudotyped,EC50,-,PBMC,-,GFP,0.031 µM
c1cc(CN2CCCNCCNCCCNCC2)ccc1CN1CCCNCCNCCCNCC1,-,EC50,14a-Pre,PBMC,-,-,0.23 µM
O=c1oc(C23CC4CC(CC(C4)C2)C3)nc2ccc(Br)cc12,-,EC50,-,CEM,-,cytopathic effect / XTT,50.3 µM
Cc1cn([C@@H]2O[C@H](CO[Si](c3ccccc3)(c3ccccc3)C(C)(C)C)C3(OS(=O)(=O)C=C3N)[C@H]2O[Si](C)(C)C(C)(C)C)c(=O)n(C)c1=O,-,EC50,IIIB,CEM,-,syncytia,>60 µM
O=c1[nH]cnc2c1ncn2[C@H]1CC[C@@H](CO)O1,-,EC50,NNRTI-resistant (RT Y181C),MT-4,RT-Y181C,cytopathic effect / MTT,3 µM
Cc1ccnc2c1NC(=O)c1cccnc1N2C1CC1,-,EC50,-,C8166,K103N,p24 / ELISA,5.38 µM
Cc1cn([C@H]2C[C@H](N=[N+]=[N-])[C@@H](CO)O2)c(=O)[nH]c1=O,-,EC50,A17,MT-2,Pyridinone-resistant,cytopathic effect / XTT,0.005 µM
Cc1ccc(-c2ccc3c(c2)C=C(C(=O)Nc2ccc(C[N+](C)(C)C4CCOCC4)cc2)CCC3)cc1,-,EC50,IIIB,MAGI + MAGI-CCR5,-,β-galactosidase,>51 µM
CNc1nc(C(C)c2c(F)cccc2F)c(C)c(=O)[nH]1,-,EC50,-,MT-4,RT-Y181C,cytopathic effect / MTT,13 µM
CC(C)(C)NC(=O)c1ccccc1C[C@@H](O)[C@H](CSc1ccc2ccccc2c1)NC(=O)c1cccc2cnccc12,-,EC50,-,CEM,-,cytopathic effect,16 µg/mL
COC(=O)N[C@H](C(=O)N[C@@H](Cc1ccccc1)[C@@H](O)CN(Cc1ccc(-c2ccccn2)cc1)NC(=O)[C@@H](NC(=O)OC)C(C)(C)C)C(C)(C)C,-,EC50,Site-directed PR mutant 04,HeLa,PR-M46I I54V A71V V82A,β-galactosidase,0.00339 µM
Cc1ccc(NC(=O)C23CC4CC(CC(C4)C2)C3)c(C(=O)NN)c1,-,EC50,-,CEM,-,cytopathic effect / XTT,>38.9 µM
CC(c1cc(=O)[nH]c(NC2CCCC2)n1)c1c(F)cccc1F,-,EC50,IIIB,MT-4,-,cytopathic effect / MTT,0.02 µM
Cc1c(N)cccc1C(=O)N[C@@H](CSc1ccc2ccccc2c1)[C@H](O)Cc1ccccc1C(=O)NC(C)(C)C,-,EC50,-,CEM,-,cytopathic effect,5 µg/mL
COc1ccc2c(c1)N(C(=O)OC(C)C)[C@@H](CSC)C(=S)N2,-,EC50,MN,H9,-,antigen,0.006 µM
Cc1cn([C@H]2C[C@H](N=[N+]=[N-])[C@@H](COP(=O)(OCC(Cl)(Cl)Cl)Oc3ccccc3)O2)c(=O)[nH]c1=O,-,EC50,IIIB,C8166,-,MTT / p24,0.2 µM
Cc1ccnc2c1NC(=O)c1cccnc1N2C1CC1,-,EC50,BILA2185-resistant (PR I84V),C8166,-,p24,0.016 µM
N#Cc1ccc(Nc2nccc(C(O)c3ccc4ccccc4c3)n2)cc1,-,EC50,IIIB,MT-4,-,MTT,1.277 µM
O=c1cc(Cc2c(F)cccc2F)nc(NC2CCCC2)[nH]1,-,EC50,IIIB,MT-4,-,cytopathic effect / MTT,0.2 µM
O=C(CC1(O)C(=O)Nc2ccc(Br)cc21)c1ccccc1Cl,-,EC50,-,C8166,K103N,p24 / ELISA,184 µM
Cc1cn([C@H]2C[C@H](N=[N+]=[N-])[C@@H](COP(=O)(Oc3ccccc3)Oc3ccccc3)O2)c(=O)[nH]c1=O,-,EC50,IIIB,C8166,-,MTT / p24,0.3 µM
CC(=O)Oc1ccc2cc(Br)ccc2c1Cc1c(C)[nH]c2ccccc12,-,EC50,-,MT-4,-,MTT,12 µM
Cc1nc2ccccc2c(-c2ccc3c(c2)CCCO3)c1C(OC(C)(C)C)C(=O)O,-,EC50,-,-,-,luciferase,11 µM
Cc1cn([C@H]2C[C@H](N=[N+]=[N-])[C@@H](CO)O2)c(=O)[nH]c1=O,-,EC90,Subtype B isolate,PBMC,-,p24,0.01 µM

Repeating the final 5 entries:

O=C(CC1(O)C(=O)Nc2ccc(Br)cc21)c1ccccc1Cl ; measure: EC50 ; cell line: C8166 ; changes: K103N ; read by: p24 / ELISA ; result: 184 µM
Cc1cn([C@H]2C[C@H](N=[N+]=[N-])[C@@H](COP(=O)(Oc3ccccc3)Oc3ccccc3)O2)c(=O)[nH]c1=O ; measure: EC50 ; strain or isolate: IIIB ; cell line: C8166 ; read by: MTT / p24 ; result: 0.3 µM
CC(=O)Oc1ccc2cc(Br)ccc2c1Cc1c(C)[nH]c2ccccc12 ; measure: EC50 ; cell line: MT-4 ; read by: MTT ; result: 12 µM
Cc1nc2ccccc2c(-c2ccc3c(c2)CCCO3)c1C(OC(C)(C)C)C(=O)O ; measure: EC50 ; read by: luciferase ; result: 11 µM
Cc1cn([C@H]2C[C@H](N=[N+]=[N-])[C@@H](CO)O2)c(=O)[nH]c1=O ; measure: EC90 ; strain or isolate: Subtype B isolate ; cell line: PBMC ; read by: p24 ; result: 0.01 µM

Conditions beyond the fields shown may differ between rows. ECn is the concentration giving n% inhibition of infection, replication or growth.